Anti-infective test results gathered from many reports (values: NIAID ChemDB through PubChem).

Common to all: growth or infection tests

a–b is a range or a potency band. Neighbouring rows are from separate reports. ECn is the concentration giving n% inhibition of infection, replication or growth. Blank or dashed fields: not listed here. Inhibition is in % at the dose shown (toxicity tests: loss of growth or viability).

smiles,endpoint,strain,cell line,tested at,species,read by,value
O=C(NC(=S)Nc1ccc(I)cc1)c1ccccc1COc1ccc(Cl)cc1,EC50,RH beta-gal,Human foreskin fibroblasts (HFF),-,Toxoplasma gondii,-,104 µM
Cc1ccccc1Cn1ccc2nc(-c3ccccc3)nc-2c1,EC50,PE515,MDBK,-,Bovine viral diarrhea virus,cytopathic effect,0.019 µg/mL
CCc1nc2ccc(Cl)cn2c1C(=O)NCc1ccc(N2C[C@H](C)N(c3ccc(OCC(F)(F)F)nc3)C[C@H]2C)c(F)c1.Cl,inhibition,-,-,0.043 µM,Mycobacterium avium,fluorescence,85%
Clc1ccc(Cn2ccc3nc(-c4ccccc4)nc-3c2)s1,EC50,PE515,MDBK,-,Bovine viral diarrhea virus,cytopathic effect,0.014 µg/mL
O=C(NC(=S)Nc1ccc(Br)cc1)c1ccccc1COc1ccc(F)cc1,EC50,RH beta-gal,Human foreskin fibroblasts (HFF),-,Toxoplasma gondii,-,42 µM
Cc1cc(-c2noc(C(F)(F)F)n2)cc(C)c1OCCCc1ccc(C(C)(F)F)nn1,EC50,-,HeLa,-,Enterovirus,cytopathic effect,0.033–0.659 µg/mL
N#Cc1ncn(CCc2ccc(Cl)cc2Cl)c1/N=c1\ssnc1Cl,MIC,ATCC26785,-,-,Saccharomyces cerevisiae,-,25 µg/mL
O=C(NC(=S)Nc1c(Cl)cccc1Cl)c1ccccc1COc1ccc(Cl)cc1,EC50,RH beta-gal,Human foreskin fibroblasts (HFF),-,Toxoplasma gondii,-,52 µM
Cc1nc2ccc(F)cn2c1C(=O)NCc1ccc(N2CC(c3ccc(OC(F)(F)F)cc3)C2)c(F)c1,inhibition,-,-,0.13 µM,Mycobacterium avium,fluorescence,85%
CC(=O)N[C@H]1[C@H]([C@H](O)[C@H](O)CO)OC(C(=O)O)=C[C@@H]1N=C(N)N,EC50,Influenza A/Beijing/32/92 (H3N2),MDCK,-,Influenza A virus,-,0.65 µM
O=C(NC(=S)Nc1ccccc1)c1ccccc1COc1ccc(Cl)cc1,EC50,RH beta-gal,Human foreskin fibroblasts (HFF),-,Toxoplasma gondii,-,16 µM
COc1c2c(c(O)c3ccccc13)C(=O)c1cnn(C)c1C2=O,inhibition,-,-,25 µM,Cryptosporidium parvum,-,86%
Cc1nc(-c2cc(C)c(OCCCc3ccc(C(F)F)o3)c(C)c2)no1,EC50,-,HeLa,-,Enterovirus,cytopathic effect,0.033–0.659 µg/mL
Cn1ncc2c1C(=O)c1c(Cl)ccc(O)c1C2=O,inhibition,-,-,10 µM,Cryptosporidium parvum,-,79%
COc1ccn2nc(C)c(C(=O)NCc3cc(F)c(N4CCN(c5ccc(OC(F)(F)F)cc5)[C@@H](C)C4)cc3F)c2c1.Cl,inhibition,-,-,0.045 µM,Mycobacterium avium,fluorescence,85%
Nc1nc2c(ncn2CCC(CO)CO)c(=O)[nH]1,EC50,B927,FEA,-,Equine herpesvirus 1,plaque count,0.9 µg/mL
CCn1ncc2c1C(=O)c1c(O)ccc(O)c1C2=O,inhibition,-,-,50 µM,Cryptosporidium parvum,-,<10%
CC(=O)N[C@H]1C[C@@H](n2cnc3c(N)ncnc32)[C@H](O)[C@@H]1O,EC50,-,HFF,-,Pichinde virus,-,>100 µg/mL
O=C1c2cccc(Cl)c2C(=O)c2cn[nH]c21,inhibition,-,-,100 µM,Cryptosporidium parvum,-,100%
N#Cc1cnn(-c2ccccc2)c1/N=c1\ssnc1Cl,MIC,ATCC26785,-,-,Saccharomyces cerevisiae,-,25 µg/mL
Cc1ccc(CCCCCOc2ccc(-c3noc(C(F)F)n3)c(C)c2)nn1,EC50,-,HeLa,-,Enterovirus,cytopathic effect,0.033–0.659 µg/mL
N#Cc1cccc(Cn2ccc3nc(-c4ccccc4)nc-3c2)c1,EC50,PE515,MDBK,-,Bovine viral diarrhea virus,cytopathic effect,0.245 µg/mL
CCCc1ccc(CCCOc2ccc(-c3noc(C4CC4)n3)c(C)c2)nn1,EC50,-,HeLa,-,Enterovirus,cytopathic effect,0.033–0.659 µg/mL
Cc1nc2ccc(F)cn2c1C(=O)NCc1ccc(N2CCN(c3ccc(OC(F)(F)F)cc3)[C@@H](C)C2)cc1,inhibition,-,-,0.015 µM,Mycobacterium avium,fluorescence,85%
COc1cc(C)cc2c1C(=O)c1cnn(C)c1C2=O,inhibition,-,-,100 µM,Cryptosporidium parvum,-,71%
Cc1cc(OCCCc2ccc(=O)[nH]n2)cc(C)c1-c1noc(C(F)F)n1,EC50,-,HeLa,-,Enterovirus,cytopathic effect,0.033–0.659 µg/mL
Nc1ccn(C[C@@H](CO)OCP(=O)(O)O)c(=O)n1,EC50,TYPE 6A,MOLT-3,-,Human herpesvirus 6,cytopathic effect,2 µg/mL
N#Cc1cnn(Cc2ccccc2)c1/N=c1\ssnc1Cl,MIC,ATCC26785,-,-,Saccharomyces cerevisiae,-,50 µg/mL
O=C(NC(=S)Nc1ccccc1I)c1ccccc1COc1ccc(Cl)cc1,EC50,RH beta-gal,Human foreskin fibroblasts (HFF),-,Toxoplasma gondii,-,57 µM
COc1ccc(C/C=C/Oc2cc(C)c(-c3noc(C(F)F)n3)c(C)c2)nn1,EC50,-,HeLa,-,Enterovirus,cytopathic effect,0.033–0.659 µg/mL
Cn1ncc(C#N)c1/N=c1\ssnc1Cl,MIC,ATCC26785,-,-,Saccharomyces cerevisiae,-,25 µg/mL
COc1ccc(OCc2ccccc2C(=O)NC(=S)Nc2cccc(Cl)c2)cc1,EC50,RH beta-gal,Human foreskin fibroblasts (HFF),-,Toxoplasma gondii,-,39 µM
Cc1ccn2c(C(=O)NCc3ccc(C4CCN(C5CN(CC(F)(F)F)C5)CC4)c(F)c3)c(C)nc2c1,inhibition,-,-,0.61 µM,Mycobacterium avium,fluorescence,85%
CCc1ccc(CCCOc2c(C)cc(-c3noc(C)n3)cc2C)nn1,EC50,-,HeLa,-,Coxsackie virus,cytopathic effect,0.033–0.659 µg/mL
N#Cc1ncn(CCc2ccccc2)c1/N=c1\ssnc1Cl,MIC,ATCC26785,-,-,Saccharomyces cerevisiae,-,25 µg/mL

For reference, 4 entries again:

smiles,endpoint,strain,cell line,tested at,species,read by,value
O=C1c2cccc(Cl)c2C(=O)c2cn[nH]c21,inhibition,-,-,100 µM,Cryptosporidium parvum,-,100%
N#Cc1ncn(CCc2ccccc2)c1/N=c1\ssnc1Cl,MIC,ATCC26785,-,-,Saccharomyces cerevisiae,-,25 µg/mL
N#Cc1cccc(Cn2ccc3nc(-c4ccccc4)nc-3c2)c1,EC50,PE515,MDBK,-,Bovine viral diarrhea virus,cytopathic effect,0.245 µg/mL
COc1ccc(C/C=C/Oc2cc(C)c(-c3noc(C(F)F)n3)c(C)c2)nn1,EC50,-,HeLa,-,Enterovirus,cytopathic effect,0.033–0.659 µg/mL